Experimental data as given in the supplement of paper PMC9931576.
Human monoclonal antibodies against the spike receptor-binding domain (heavy:light variable regions). IC50 against pseudoviruses bearing the spike of naturally observed variants; lower = stronger; >10 µg/ml means not reached at the top dose. No active / inactive call. The stated detection limit is 0.0005 µg/ml; values near or below 0.001 µg/ml lie at the floor of the assay.

B1: BD55-5771 (protein)
chain 1: QVQLVQSGAEVKKPGASVKVSCKGSGYPFTGYFLHWVRQAPGQGPEWMGWINPLSGATNYAQKFQGRVTMTRDTSINTAYMELSRLRSDDTAVYYCASPSFCSSSDCYHYYYYYMDVWGKGTTVTVSS
chain 2: DIVMTQTPLSLSVTPGQSASISCRSSQSLLHSDGKTYLYWYLQKPGQPPQLLIYEVSNRFSGVPDRFSGSGSGTDFTLKISRVEAEDVGVYYCMQSIELPITFGQGTRLEIK
B2: BD55-5790 (protein)
chain 1: EVQLVESGGNLVQPGGSLRLSCAASGFTFSRYWMSWVRQAPGKGLEWVANIKQDGSETSYVDSVEGRFTISRDNAKNSLFLQMNSLRAEDTAVYYCARAPVSYDILTPEWFDAWGQGTLVTVSS
chain 2: YELTQPPSVSVSPGQTARITCSGDPLPTQWTNWYQQKPGQAPVMVIYKDRERPSGIPERFSGSTSGTTVTLIISGVQAEDEADYYCQSADSRFWVFGGGTKLTVL
B3: BD55-5774 (protein)
chain 1: EVQLVEAGGGLVKPGESLRISCAVSGFIFRSYSMNWVRQAPGKGLEWVSSISSVSDYISYGDSVKGRFAISRDNAQNSLFLQMNSLRAEDTAVYYCARRSNAGEVLDYWGQGTLVIVSS
chain 2: DIVMTQSPDSLAVSLGERATIHCKSSQSVLYSSNNKNYLAWYQQKPGQPPKLLLYWASTRESGAPDRFSGSGSGTDFTLTISSLQAEDVAVYYCQQFYSSPITFGQGTRLDIK
B4: BD55-5815 (protein)
chain 1: EVQLVESGGGLVQPGGSLRLSCAASGFSFSNYDMHWVRQTKAEGLEWVSAIGTSGDTYYADSVKGRFIISRENAKNSLYLQMSRLRDGDTAVYYCVRGDFDSRGFVGWFDPWGQGTLVAVSS
chain 2: DFQMTQSPSSLSASVGERVTITCRASQYISNYLNWYQQKPGKAPKLLIYAASSLQSGVPSRFSGSGSGRDFTLTISSLQPDDFATYYCQQSYATPPWTFGPGTKVDIK
B5: BD55-5806 (protein)
chain 1: QVQLVQSGAEVKKPGSSVKVSCKASGGSFGNYAITWVRQAPGQGLEWMGRIIPILERANYAQKVQGRITITADTSTSTAYMELSSLRSEDTAVYYCARDASCDFWSGYCQNDAFDIWGQGTMVAVSS
chain 2: DIQVTQSPSAMSVSVGDRVTITCRASQGVSNYLVWFQQKPGKAPKRLIYAASSLQSGVPSRFSGSGSGTEFTLTISSLQPEDFATYYCLHHSSYPWTFGQGTKVEIK
B6: BD55-5789 (protein)
chain 1: QLQLQESGPGLVKPSETLSLTCTVSGASMSSSSDHWGWIRQPPGKGLEWIGSTFYSGTIYYNPSLKSRVSISVDTSKNQFSLNLSSVTAADTAVYFCARTAWFGELDDYWGQGTLVTVSS
chain 2: QSVLTQPPSASGTPGQRVTIPCFGSSSNIGSNYVYWYQQLPGTAPKLLIYGNNQRPSGVPDRFSGSKSGTSASLTISGLRSEDEADYYCAAWDETLKVVFGGGTKLTVL
B7: BD55-5836 (protein)
chain 1: QVQLQESGPGVVKPSETLSLTCSVSGDSISSDSYFWAWIRQPPGKGPQWIGSIYYSGSTYYTPSLKSRVTISVDTSKSQLSLKLSSVTAADTAVYYCARLPLVLRYFDWLSWGRGTLVTVSS
chain 2: EIVLTQSPGTLSLSPGERATLSCRASQSISNSYLAWYQQKPGQAPRLLIYGASSRATGIPDRFSGSGSGTDFTLTISRLEPEDFAVYYCQQYRSSQGWTFGQGTKVEIK
B8: BD55-5761 (protein)
chain 1: QITLKESGPSLVKPTQTLTLTCTFSGFSLSTTEVSVGWIRQPPGKALEWLALIYWDDGKRYSPSLESRLTITKDTSKNQVVLRMTHMDPVDTATYYCVHSHFDISTGYFGFDYWGQGTLVTVSS
chain 2: DIVMTQTPLSSPVTIGQPASISCRSSQSLAHSDGNIYLSWFHQRPGQPPRLLIYKVSNRFSGVPDRFSGSGAGTDFTLKISRVEAEDVGVYYCMQATQFPHEMYTFGQGTKLEIK
B9: BD55-5831 (protein)
chain 1: QMQLVESGGGVVRPGRSLRLSCAASAFPFSTYAMHWVRQAPGKGLEWVAVISYDGSDIYYADSVKGRFTISRDNSKNTLYLQMSNLGAEDTAVYYCARAGVLRNFDWLLSSGFAYWGQGTLVTVSS
chain 2: DIQMTQSPSSLSASVGDRVTITCQASQDIRNYLNWYQQKPGKAPKLLIYDASNLEPGVPSRFSGRGSGTDFTLTISSLQPEDLATYYCQQYFNLPSFGQGTKLEIK
B10: BD55-5779 (protein)
chain 1: QVQLVQSGAEVKKPGASVKVSCKASGYSFTDYAVHWVRLAPGQRLEWMGWINTANGDTKYSQNFQDRVTITRDTSATTAYMELSSLRSEDTAVYYCARAIIVHTAPVTFYFYYGMDVWGQGTTVTVSS
chain 2: SYELTQPPSVSVSPGQTARITCSGDALPKQYAYWYQQKPGQAPILVIYKDNERPSGIPERFSGSSSGTTVTLTISGVQPEDEADYYCQSADSATTYMVFGGGTKLTVV
B11: BD55-1093 (protein)
chain 1: QVQLVQSGVEVKKPGASVKISCKASGYTFTDYYMHWVRQAPGQGLEWMAVINPSDGSTLHAQKFQGRLTLSSDTSTSTVNMEMSSLKSEDTAVYYCARDLTRGHSGLDSFPDYWGHGTLVTVSS
chain 2: DIQMTQSPSSLSASVGDRVTIACRASQSIGGFLNWYQHKPGKAPKLLIYSASNLQSGVPSRFSGSGSGTEFTLTISRLQPEDIATYYCLQSYNTPPWTFGQGTKVEVK
B12: BD55-5785 (protein)
chain 1: QVQLQESGPGLVKPSETLSLTCIVSGGPISSYYWTWIRQPPGKGLEWIGYVYYSGHTDYNPSVKSRVTISIDRSRNQFSLNLRSVSTADTAVYYCARGSGPYDMLTGTPGYKFDQWGQGTLVTVSS
chain 2: SYEVTQPSSVSVSPGQTASITCSGDNLGKNSVCWYQQKPGQSPVLVIYEDKERPSGIPERFSGSNSGNTATLTISGTQAVDEADYFCQAWDTKTWVFGGGTKLTVL

Biological target: SARS-CoV-2 Omicron BA.1 spike pseudovirus
Experiment: pseudovirus neutralization IC50; higher = weaker neutralization
Experimental: (§1)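 Single-round VSV luciferase pseudovirus mixed with antibody dilutions for 1 h and put on Huh-7 cells for about a day; IC50 from the dose curve.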

B1 and B2 cannot be ordered by “pseudovirus neutralization IC50” value: over 10 µg/mL for the first, over 10 µg/mL for the second.

B3 and B4 are within 1.5-fold of each other in “pseudovirus neutralization IC50” value: 4.08 µg/mL for the first, 5.84 µg/mL for the second.

First: B5
Second: B6
The “pseudovirus neutralization IC50” value of the first is lower: 0.333 µg/mL for the first, over 10 µg/mL for the second.

B7 and B8 cannot be ordered by “pseudovirus neutralization IC50” value: over 10 µg/mL for the first, over 10 µg/mL for the second.

B9 and B10 cannot be ordered by “pseudovirus neutralization IC50” value: over 10 µg/mL for the first, over 10 µg/mL for the second.

B11 and B12 cannot be ordered by “pseudovirus neutralization IC50” value: over 10 µg/mL for the first, over 10 µg/mL for the second.

Biological target: SARS-CoV-2 Omicron BA.2 spike pseudovirus
Experiment: as above
Experimental: as §1

B1 and B2 cannot be ordered by “pseudovirus neutralization IC50” value: over 10 µg/mL for the first, over 10 µg/mL for the second.

Going from B3 to B4, the “pseudovirus neutralization IC50” value rises from 1.65 µg/mL to over 10 µg/mL.

Going from B5 to B6, the “pseudovirus neutralization IC50” value rises from 0.213 µg/mL to over 10 µg/mL.

B7 and B8 cannot be ordered by “pseudovirus neutralization IC50” value: over 10 µg/mL for the first, over 10 µg/mL for the second.

B9 and B10 cannot be ordered by “pseudovirus neutralization IC50” value: over 10 µg/mL for the first, over 10 µg/mL for the second.

B11 and B12 cannot be ordered by “pseudovirus neutralization IC50” value: over 10 µg/mL for the first, over 10 µg/mL for the second.

Biological target: SARS-CoV-2 Omicron BA.2.75 spike pseudovirus
Experiment: as above
Experimental: as §1

Going from B1 to B2, the “pseudovirus neutralization IC50” value rises from 0.379 µg/mL to over 10 µg/mL.

Going from B3 to B4, the “pseudovirus neutralization IC50” value rises from 5.47 µg/mL to over 10 µg/mL.

Going from B5 to B6, the “pseudovirus neutralization IC50” value rises from 0.0018 µg/mL to over 10 µg/mL.

B7 and B8 cannot be ordered by “pseudovirus neutralization IC50” value: over 10 µg/mL for the first, over 10 µg/mL for the second.

B9 and B10 cannot be ordered by “pseudovirus neutralization IC50” value: over 10 µg/mL for the first, over 10 µg/mL for the second.

B11 and B12 cannot be ordered by “pseudovirus neutralization IC50” value: over 10 µg/mL for the first, over 10 µg/mL for the second.

Biological target: SARS-CoV-2 Omicron BA.5 spike pseudovirus
Experiment: as above
Experimental: as §1

B1 and B2 cannot be ordered by “pseudovirus neutralization IC50” value: over 10 µg/mL for the first, over 10 µg/mL for the second.

Going from B3 to B4, the “pseudovirus neutralization IC50” value falls from over 10 µg/mL to 8.12 µg/mL.

B5 and B6 cannot be ordered by “pseudovirus neutralization IC50” value: over 10 µg/mL for the first, over 10 µg/mL for the second.

B7 and B8 cannot be ordered by “pseudovirus neutralization IC50” value: over 10 µg/mL for the first, over 10 µg/mL for the second.

B9 and B10 cannot be ordered by “pseudovirus neutralization IC50” value: over 10 µg/mL for the first, over 10 µg/mL for the second.

B11 and B12 cannot be ordered by “pseudovirus neutralization IC50” value: over 10 µg/mL for the first, over 10 µg/mL for the second.

Biological target: SARS-CoV-2 Omicron BQ.1.1 spike pseudovirus
Experiment: as above
Experimental: as §1

B1 and B2 cannot be ordered by “pseudovirus neutralization IC50” value: over 10 µg/mL for the first, over 10 µg/mL for the second.

B3 and B4 cannot be ordered by “pseudovirus neutralization IC50” value: over 10 µg/mL for the first, over 10 µg/mL for the second.

B5 and B6 cannot be ordered by “pseudovirus neutralization IC50” value: over 10 µg/mL for the first, over 10 µg/mL for the second.

B7 and B8 cannot be ordered by “pseudovirus neutralization IC50” value: over 10 µg/mL for the first, over 10 µg/mL for the second.

B9 and B10 cannot be ordered by “pseudovirus neutralization IC50” value: over 10 µg/mL for the first, over 10 µg/mL for the second.

B11 and B12 cannot be ordered by “pseudovirus neutralization IC50” value: over 10 µg/mL for the first, over 10 µg/mL for the second.

Biological target: SARS-CoV-2 Omicron XBB spike pseudovirus
Experiment: as above
Experimental: as §1

B1 and B2 cannot be ordered by “pseudovirus neutralization IC50” value: over 10 µg/mL for the first, over 10 µg/mL for the second.

B3 and B4 cannot be ordered by “pseudovirus neutralization IC50” value: over 10 µg/mL for the first, over 10 µg/mL for the second.

B5 and B6 cannot be ordered by “pseudovirus neutralization IC50” value: over 10 µg/mL for the first, over 10 µg/mL for the second.

B7 and B8 cannot be ordered by “pseudovirus neutralization IC50” value: over 10 µg/mL for the first, over 10 µg/mL for the second.

B9 and B10 cannot be ordered by “pseudovirus neutralization IC50” value: over 10 µg/mL for the first, over 10 µg/mL for the second.

B11 and B12 cannot be ordered by “pseudovirus neutralization IC50” value: over 10 µg/mL for the first, over 10 µg/mL for the second.

Biological target: SARS-CoV-2 early D614G spike pseudovirus
Experiment: as above
Experimental: as §1

Going from B1 to B2, the “pseudovirus neutralization IC50” value rises from 0.001 µg/mL to 2.84 µg/mL (2800-fold).

First: B3
Second: B4
The “pseudovirus neutralization IC50” value of the first is 49-fold lower: 0.0132 µg/mL for the first, 0.648 µg/mL for the second.

First: B5
Second: B6
The “pseudovirus neutralization IC50” value of the first is lower: 0.0017 µg/mL for the first, over 10 µg/mL for the second.

Going from B7 to B8, the “pseudovirus neutralization IC50” value falls from 0.399 µg/mL to 0.15 µg/mL (2.7-fold).

First: B9
Second: B10
The “pseudovirus neutralization IC50” value of the first is 2.3-fold lower: 0.157 µg/mL for the first, 0.363 µg/mL for the second.

Compared with B11, B12 is lower in “pseudovirus neutralization IC50” value: over 10 µg/mL for the first, 1.97 µg/mL for the second.
